Pooled drug test results. Numbers come from NIAID ChemDB, via PubChem.

Common to all: target-level tests; organism: HIV-1; protein: Reverse transcriptase; endpoint: IC50

a–b is a range or a potency band. Rows are shuffled and stem from different studies. ICn: concentration for n% inhibition. Blank or dashed fields: not listed here.

{"SMILES": "Cn1c(-c2ccc(Cl)cc2Cl)cs/c1=N\\N=C1\\C(=O)Nc2ccccc21", "read by": "RT activity / nucleotide incorporation / fluorescence", "value": "19.6 µM"}
{"SMILES": "O=C(O)CCCCCC(=O)OC[C@H]1O[C@@H](n2cc(-c3cccs3)c(=O)[nH]c2=O)C[C@@H]1O", "read by": "nucleotide incorporation / radiometric", "value": ">200 µg/mL"}
{"SMILES": "Cc1ccc(-c2cs/c(=N\\N=C3\\C(=O)Nc4ccccc43)n2C)cc1", "read by": "RT activity / nucleotide incorporation / fluorescence", "value": "29 µM"}
{"SMILES": "COc1c(C(=O)/C=C(/C)Nc2ccccc2)c(O)c(S(=O)(=O)OC2CCCCC2)c2occc12", "read by": "RT activity / radiometric", "value": "0.0000085 µM"}
{"SMILES": "CCNc1cccnc1N1CCN(Cc2cc(C)c(OC)c(C)c2)CC1", "read by": "nucleotide incorporation", "value": "<100 µM"}
{"SMILES": "CCN1c2ccc(C)cc2N(C)C(=O)c2cc(Cl)nnc21", "value": "<330 µM"}
{"SMILES": "O=C(O)C1CCC(C(=O)OC[C@H]2O[C@@H](n3cc(-c4cccs4)c(=O)[nH]c3=O)C[C@@H]2O)CC1", "read by": "nucleotide incorporation / radiometric", "value": "140 µg/mL"}
{"SMILES": "Cc1nnc2c3ccccc3c(N3CCC4CCCCC4C3)nn12", "strain or isolate": "98US_MSC5016", "read by": "RT activity / fluorescence", "value": "2.63 µM"}
{"SMILES": "CCN1C(=O)c2ccnnc2N(CC)c2ccc(C)cc21", "value": "<330 µM"}
{"SMILES": "Cn1c(-c2ccc(F)cc2F)cs/c1=N\\N=C1\\C(=O)Nc2ccccc21", "read by": "RT activity / nucleotide incorporation / fluorescence", "value": "30 µM"}
{"SMILES": "Cc1cn([C@H]2C[C@H](F)[C@@H](CO)O2)c(=O)[nH]c1=O", "value": "0.05 µM"}
{"SMILES": "CCCCCCCCCCCCCCCc1nc2c(cc(S(=O)(=O)O)c3ccccc32)o1", "read by": "RT activity", "value": "<50 µM"}
{"SMILES": "C=Cc1cn([C@H]2C[C@H](F)[C@@H](CO)O2)c(=O)[nH]c1=O", "value": "0.025 µM"}
{"SMILES": "Cc1c(N2CCc3ccccc3C2)nn2c(C)nnc2c1C", "strain or isolate": "KER2008", "read by": "RT activity / fluorescence", "value": "28.4 µM"}
{"SMILES": "CC(C)Nc1cccnc1N(C)CCCCCCN(C)C(=O)c1cc2ccccc2[nH]1", "read by": "nucleotide incorporation", "value": "<100 µM"}
{"SMILES": "Cc1nnc2c3ccccc3c(N3CCc4c(F)cccc4C3)nn12", "strain or isolate": "IIIB", "read by": "RT activity / fluorescence", "value": "2.16 µM"}
{"SMILES": "O=c1[nH]c(=O)n([C@H]2C[C@H](O)[C@@H](COP(=O)(O)OP(=O)(O)OP(=O)(O)O)O2)cc1-c1cccs1", "read by": "nucleotide incorporation / radiometric", "value": "0.13 µg/mL"}
{"SMILES": "O=C(c1cc2ccccc2[nH]1)N1CCN(c2ncccc2NCC2CC2)CC1", "read by": "nucleotide incorporation", "value": "<100 µM"}
{"SMILES": "Nc1ccc(S(=O)(=O)O)c2ccccc12", "read by": "RT activity", "value": ">50 µM"}
{"SMILES": "CCCN1C(=O)c2ccnnc2N(C2CC2)c2ccccc21", "value": "~33 µM"}
{"SMILES": "CCN1c2ncc(CCOc3ccc(-c4cc(CC(=O)O)ccc4OC)cc3C)cc2C(=O)N(C)c2cccnc21", "strain or isolate": "IIIB", "read by": "nucleotide incorporation / radiometric", "value": "<0.05 µM"}
{"SMILES": "CCN1C(=O)c2ccnnc2N(C2CC2)c2ccc(C)cc21", "value": "~330 µM"}
{"SMILES": "Cc1nnc2c3ccccc3c(N3CCc4ccc(C#N)cc4C3)nn12", "strain or isolate": "KER2008", "read by": "RT activity / fluorescence", "value": "2.48 µM"}
{"SMILES": "Nc1nc2c(ncn2[C@H]2CC[C@@H](COP(=O)(O)OP(=O)(O)OP(=O)(O)O)O2)c(=O)[nH]1", "changes": "RT-F116Y", "read by": "nucleotide incorporation / radiometric", "value": "0.027 µM"}
{"SMILES": "O=C(c1cc2ccccc2[nH]1)N1CCN(c2ncccc2[N+](=O)[O-])CC1", "read by": "nucleotide incorporation", "value": ">100 µM"}
{"SMILES": "CCCN1c2ccccc2N(C)C(=O)c2cc(Cl)nnc21", "value": "<330 µM"}
{"SMILES": "COc1cccc2[nH]c(C(=O)N3CCN(c4ncccc4NC(C)C)CC3)cc12", "read by": "nucleotide incorporation", "value": "<100 µM"}
{"SMILES": "O=C(CCCCCCC(=O)Nc1ccc(S(=O)(=O)O)c2cccc(S(=O)(=O)O)c12)Nc1ccc(S(=O)(=O)O)c2cccc(S(=O)(=O)O)c12", "read by": "RT activity", "value": ">50 µM"}
{"SMILES": "Cn1c(-c2ccccc2)cs/c1=N\\N=C1\\C(=O)Nc2ccccc21", "read by": "RT activity / nucleotide incorporation / fluorescence", "value": "15 µM"}
{"SMILES": "O=C(O)CCCC(=O)OC[C@H]1O[C@@H](n2cc(-c3cccs3)c(=O)[nH]c2=O)C[C@@H]1O", "read by": "nucleotide incorporation / radiometric", "value": "33 µg/mL"}
{"SMILES": "COc1c(C(=O)/C=C(/C)Nc2ccccc2)c(O)c(S(=O)(=O)Oc2ccc(F)cc2)c2occc12", "read by": "RT activity / radiometric", "value": "0.0000067 µM"}
{"SMILES": "O=C(c1cc2ccccc2[nH]1)N1CCN(c2ncccc2NCC(F)(F)F)CC1", "read by": "nucleotide incorporation", "value": ">100 µM"}
{"SMILES": "CCCN1C(=O)c2ccnnc2N(CC)c2ccccc21", "value": "<330 µM"}
{"SMILES": "CCNc1cccnc1N1CCN(CCCc2cc(C)c(OC)c(C)c2)CC1", "read by": "nucleotide incorporation", "value": ">100 µM"}
{"SMILES": "O=c1ccn([C@H]2C[C@H](F)[C@@H](CO)O2)c(=O)[nH]1", "value": "0.07 µM"}
{"SMILES": "c1ccc2c(c1)c(N1CCc3[nH]ccc3C1)nn1c(C3CC3)nnc21", "strain or isolate": "KER2008", "read by": "RT activity / fluorescence", "value": "4.01 µM"}
{"SMILES": "CCNc1cccnc1N1CCN(Cc2cc(C)c(SC)c(C)c2)CC1", "read by": "nucleotide incorporation", "value": ">100 µM"}
{"SMILES": "CC(C)c1nnc2c3ccccc3c(N3CCc4ccc(NS(C)(=O)=O)cc4C3)nn12", "strain or isolate": "98US_MSC5016", "read by": "RT activity / fluorescence", "value": "1.44 µM"}
{"SMILES": "COc1c(-c2cc(C)[nH]n2)c(O)c(S(=O)(=O)Oc2ccc([N+](=O)[O-])cc2)c2occc12", "read by": "RT activity / radiometric", "value": "0.0000043 µM"}
{"SMILES": "CCN1C(=O)c2cc(Cl)nnc2N(C2CC2)c2ccccc21", "value": "~330 µM"}
{"SMILES": "Cc1cn([C@H]2C[C@H](O)[C@@H](COC(=O)CCCC(=O)O)O2)c(=O)[nH]c1=O", "read by": "nucleotide incorporation / radiometric", "value": "180 µg/mL"}
{"SMILES": "CCc1cn([C@H]2C[C@H](F)[C@@H](CO)O2)c(=O)[nH]c1=O", "value": "7.5 µM"}
{"SMILES": "COc1c(C(=O)/C=C(/C)Nc2ccc([N+](=O)[O-])cc2)c(O)c(S(=O)(=O)OC2CCCCC2)c2occc12", "read by": "RT activity / radiometric", "value": "0.0000084 µM"}
{"SMILES": "O=S(=O)(O)c1ccc2c(OS(=O)(=O)c3cccc4c(S(=O)(=O)Oc5cc(S(=O)(=O)O)cc6cc(S(=O)(=O)O)ccc56)cccc34)cc(S(=O)(=O)O)cc2c1", "read by": "RT activity", "value": "<50 µM"}
{"SMILES": "CCN1c2ncc(CCOc3ccc(-c4ccc(CC(=O)O)cc4[N+](=O)[O-])cc3C)cc2C(=O)N(C)c2cccnc21", "strain or isolate": "IIIB", "changes": "RT-K103N Y181C", "read by": "nucleotide incorporation / radiometric", "value": "0.05–0.1 µM"}
{"SMILES": "Nc1ncnc2c1ncn2[C@H]1CC[C@@H](COP(=O)(O)OP(=O)(O)OP(=O)(O)O)O1", "changes": "RT-V75I", "read by": "nucleotide incorporation / radiometric", "value": "4.6 µM"}
{"SMILES": "COc1c(-c2cc(C)on2)c(O)c(S(=O)(=O)Oc2ccc(F)cc2)c2occc12", "read by": "RT activity / radiometric", "value": "0.0000056 µM"}
{"SMILES": "CCN1c2ncc(CCOc3ccc(NC(=O)NCC(=O)O)cc3C)cc2C(=O)N(C)c2cccnc21", "strain or isolate": "IIIB", "changes": "RT-K103N Y181C", "read by": "nucleotide incorporation / radiometric", "value": ">0.1 µM"}
{"SMILES": "CCNc1cccnc1N1CCN(Cc2ccc(OC)cc2)CC1", "read by": "nucleotide incorporation", "value": ">100 µM"}
{"SMILES": "COc1c(C(=O)/C=C(/C)Nc2ccc([N+](=O)[O-])cc2)c(O)c(S(=O)(=O)Oc2ccc(F)cc2)c2occc12", "read by": "RT activity / radiometric", "value": "0.0000065 µM"}
{"SMILES": "Cn1c(-c2cccc([N+](=O)[O-])c2)cs/c1=N\\N=C1\\C(=O)Nc2ccccc21", "read by": "RT activity / nucleotide incorporation / fluorescence", "value": "69 µM"}
{"SMILES": "COc1ccc(OS(=O)(=O)c2c3occc3c(OC)c3c(=O)cc(C)oc23)cc1", "read by": "RT activity / radiometric", "value": "0.0000087 µM"}
{"SMILES": "CCN1c2ncc(CCOc3ccc(NC(=O)CCC(=O)O)cc3C)cc2C(=O)N(C)c2cccnc21", "strain or isolate": "IIIB", "changes": "RT-K103N Y181C", "read by": "nucleotide incorporation / radiometric", "value": "0.05–0.1 µM"}
{"SMILES": "O=C(Oc1cc(S(=O)(=O)O)cc2cc(S(=O)(=O)O)ccc12)c1ccc(-c2ccc(C(=O)Oc3cc(S(=O)(=O)O)cc4cc(S(=O)(=O)O)ccc34)cc2)cc1", "read by": "RT activity", "value": "<50 µM"}
{"SMILES": "CCN1C(=O)c2cc(Cl)nnc2N(CC)c2ccccc21", "value": ">330 µM"}
{"SMILES": "Nc1nc2c(ncn2[C@H]2CC[C@@H](COP(=O)(O)OP(=O)(O)OP(=O)(O)O)O2)c(=O)[nH]1", "changes": "RT-Y188L", "read by": "nucleotide incorporation", "value": "0.03 µM"}
{"SMILES": "O=S(=O)(O)c1cccc2ccc(OS(=O)(=O)c3ccc(-c4ccc(S(=O)(=O)Oc5ccc6cccc(S(=O)(=O)O)c6c5)cc4)cc3)cc12", "read by": "RT activity", "value": "<50 µM"}

Again, the opening 3 rows:

SMILES,strain or isolate,changes,read by,value
Cn1c(-c2ccc(Cl)cc2Cl)cs/c1=N\N=C1\C(=O)Nc2ccccc21,-,-,RT activity / nucleotide incorporation / fluorescence,19.6 µM
O=C(O)CCCCCC(=O)OC[C@H]1O[C@@H](n2cc(-c3cccs3)c(=O)[nH]c2=O)C[C@@H]1O,-,-,nucleotide incorporation / radiometric,>200 µg/mL
Cc1ccc(-c2cs/c(=N\N=C3\C(=O)Nc4ccccc43)n2C)cc1,-,-,RT activity / nucleotide incorporation / fluorescence,29 µM